Experimental findings from patent US12173029B2, “Antiviral prodrugs, pharmaceutical formulations, and methods” (priority 2020, dated 2024) are described below.

A value given as a limit tells only on which side of the number the result lay.

Format in all cases: cell-based
Series [1] has as its system SARS-CoV-2 isolate USA-WA1/2020. The series can be described thus: Example 7 SARS-CoV-2 infection in Huh7.5 cells (qRT-PCR). Conditions: Selectivity index CC50/EC50, Huh7.5 cells.
Series [2] has the same test system. Description: Example 7 SARS-CoV-2 infection in Calu-3 cells (qRT-PCR). Conditions: Selectivity index CC50/EC50, Calu-3 cells. (Real-time PCR tracks product formation cycle by cycle.)
Series [3] shares this test system. The series can be described thus: Example 7 SARS-CoV-2 infection in Caco-2 cells (qRT-PCR). As to conditions: Selectivity index CC50/EC50, Caco-2 cells.
Series [4] has the same test system. Description: Example 3 SARS-CoV-2 infection in Vero E6 cells (qRT-PCR Spike RNA). Conditions: Selectivity index, CC50/EC50, Vero E6 cells.
Series [5] shares this test system. The series can be described thus: Example 7 SARS-CoV-2 infection in Vero E6 cells (qRT-PCR). As to conditions: Selectivity index CC50/EC50, Vero E6 cells.
Series [6] has as its system USA WA-01 strain of SARS CoV-2. The series can be described thus: Example 2 anti-coronavirus activity in Vero E6 cells (qPCR spike RNA). Conditions: CC50/EC50, Vero E6 cells. The method, then:
Ten thousand Vero E6 cells were seeded in 100 microliters of culture medium in 96 well plates. The following day serial two-fold dilutions of antiviral compounds or the DMSO-containing vehicle were added to each well. The USA WA-01 strain of SARS CoV-2 was added to each well at a multiplicity of infection of 0.1 thirty minutes later. Cells were incubated for 48 hours, washed twice in PBS and lysed with TRIzol. RNA was extracted using Directzol micro RNA columns. RNA was made into cDNA and assayed for the SARS CoV-2 spike protein and for a housekeeping gene (RPLPO) RNA by qPCR. Data represents the average of duplicate wells. Cellular cytotoxicity was also measured in VERO E6 cells. […] Cytotoxicity (CC50) was assessed using a commercially available MTT assay.

Series [7] concerns SARS-CoV-2 isolate USA-WA1/2020. Description: Example 7 SARS-CoV-2 infection in PSC-human lung cells (qRT-PCR). As to conditions: Selectivity index CC50/EC50, PSC-human lung cells.

As for `CCCCCCCCCCCCCCCCCCOC[C@H](COP(=O)(O)OC[C@H]1O[C@@](C#N)(c2ccc3c(N)ncnn23)[C@H](O)[C@@H]1O)OCc1ccccc1` [Compound 15d, 1-O-octadecyl-2-O-benzyl-glyceryl-sn-3-phospho-RVn], the Selectivity in series [1] amounted to 449; in series [2] it was 327; in series [3], 295; in series [4], 240; in series [5], 699; in series [7], 410. In addition, the “Selectivity Index” value in series [6] is on record as over 238.
